Where two headings read alike, the source gives them in different places.
Experiments:
Experiment in all cases: cell-based or functional assay
[1] = biological target: SARS-CoV-2 Gamma (P.1) spike (S) protein (SARS-CoV-2) (UniProt P0DTC2)
[2] = biological target: SARS-CoV-2 Victoria spike (S) protein (SARS-CoV-2)
[3] = biological target: SARS-CoV-2 Victoria spike (S) protein (Wuhan + S247R) (SARS-CoV-2)
[4] = biological target: SARS-CoV-2 spike (S) protein, Victoria strain (SARS-CoV-2)
[5] = biological target: SARS-CoV-2 spike (S) protein, Omicron BA.1.1 (SARS-CoV-2) (UniProt P0DTC2)
[6] = biological target: SARS-CoV-2 spike (S) protein, Omicron BA.2 (SARS-CoV-2) (UniProt P0DTC2)
[7] = biological target: SARS-CoV-2 spike (S) protein, Omicron BA.2 + D339H (SARS-CoV-2) (UniProt P0DTC2)
[8] = biological target: SARS-CoV-2 spike (S) protein, Omicron BA.2 + G446S (SARS-CoV-2) (UniProt P0DTC2)
[9] = biological target: SARS-CoV-2 spike (S) protein, Omicron BA.2.3.20 (SARS-CoV-2) (UniProt P0DTC2)
[10] = biological target: SARS-CoV-2 spike (S) protein, Omicron BA.2.75.2 (SARS-CoV-2) (UniProt P0DTC2)
[11] = biological target: SARS-CoV-2 spike (S) protein, Omicron BA.4.6 (SARS-CoV-2) (UniProt P0DTC2)
[12] = biological target: SARS-CoV-2 spike (S) protein, Omicron BA.4/5 (SARS-CoV-2) (UniProt P0DTC2)
[13] = biological target: SARS-CoV-2 spike (S) protein, Victoria strain (Wuhan + S247R) (SARS-CoV-2)
[14] = biological target: SARS-CoV-2 spike (S) protein, Omicron BA.2.75 (SARS-CoV-2) (UniProt P0DTC2)
[15] = biological target: SARS-CoV-2 spike (S) protein, Omicron BA.3 (SARS-CoV-2) (UniProt P0DTC2)
[16] = biological target: SARS-CoV-2 spike (S) protein, Omicron BA.1 (SARS-CoV-2)
[17] = biological target: SARS-CoV-2 spike (S) protein, Omicron BA.1.1 (BA.1 + R346K) (SARS-CoV-2)
[18] = biological target: SARS-CoV-2 spike (S) protein, Omicron BA.3 (SARS-CoV-2)
[19] = biological target: SARS-CoV-2 Alpha (B.1.1.7) spike (S) protein (SARS-CoV-2) (UniProt P0DTC2)
[20] = biological target: SARS-CoV-2 Omicron BA.1 spike (S) protein of the live isolate (SARS-CoV-2)
[21] = biological target: SARS-CoV-2 Omicron BA.1.1 spike (S) protein (SARS-CoV-2)
[22] = biological target: SARS-CoV-2 Omicron BA.4/5 spike (S) protein (SARS-CoV-2)
[23] = biological target: SARS-CoV-2 spike (S) protein, Victoria strain (SARS-CoV-2); remark: listed apart in the source
[24] = biological target: SARS-CoV-2 spike (S) protein, Omicron BA.1 (SARS-CoV-2) (UniProt P0DTC2)
[25] = biological target: SARS-CoV-2 Delta (B.1.617.2) spike (S) protein (SARS-CoV-2) (UniProt P0DTC2)
[26] = biological target: SARS-CoV-2 Omicron BA.4.6 spike (S) protein (SARS-CoV-2)
[27] = biological target: SARS-CoV-2 spike (S) protein, Omicron BA.1.1 (SARS-CoV-2) (UniProt P0DTC2); remark: listed apart in the source
[28] = biological target: SARS-CoV-2 spike (S) protein, Omicron BA.1 (SARS-CoV-2) (UniProt P0DTC2); remark: listed apart in the source

ADG30 (antibody)
IC50 (ug/ml), authentic virus [1]: 0.002 µg/mL
IC50 (ug/ml), authentic virus [2]: 0.007 µg/mL
IC50, pseudoviral neutralization [3]: 14 ng/mL
IC50, pseudovirus [4]: 14 ng/mL

Omi-03 (antibody)
IC50 against PV [5]: 3 ng/mL
IC50 [6]: 8 ng/mL
IC50 (pseudovirus neutralization) [6]: 8 ng/mL
IC50 against PV [6]: 8 ng/mL
IC50 [7]: 6 ng/mL
IC50 [8]: 5 ng/mL
IC50 (pseudovirus neutralization) [9]: 20 ng/mL
IC50 (pseudovirus neutralization) [10]: 546 ng/mL
IC50 (pseudovirus neutralization) [11]: 6 ng/mL
IC50 against PV [12]: 37 ng/mL
IC50 against PV [4]: 3 ng/mL
IC50 (pseudovirus neutralization) [13]: 3 ng/mL

REGN10987 (antibody)
IC50 (ug/ml), authentic virus [2]: 0.032 µg/mL
IC50, pseudoviral neutralization [3]: 2 ng/mL
IC50, pseudovirus [4]: 2 ng/mL
IC50 (pseudovirus neutralization) [13]: 2 ng/mL

Omi-12 (antibody)
IC50 against PV [5]: 2 ng/mL
IC50 [6]: 3 ng/mL
IC50 (pseudovirus neutralization) [6]: 3 ng/mL
IC50 against PV [6]: 3 ng/mL
IC50 [7]: 3 ng/mL
IC50 [8]: 3 ng/mL
IC50 (pseudovirus neutralization) [9]: 8 ng/mL
IC50 [14]: 3 ng/mL
IC50 (pseudovirus neutralization) [14]: 3 ng/mL
IC50 against PV [14]: 3 ng/mL
IC50 (pseudovirus neutralization) [10]: > 10000 ng/mL
IC50 against PV [15]: 6 ng/mL
IC50 (pseudovirus neutralization) [11]: 74 ng/mL
IC50 (pseudovirus neutralization) [12]: 429 ng/mL
IC50 against PV [12]: 429 ng/mL
IC50 against PV [4]: 6 ng/mL
IC50 (pseudovirus neutralization) [13]: 6 ng/mL

Known Antibody B (REGN 10933)
IC50, pseudovirus [16]: > 10000 ng/mL
IC50, pseudovirus [17]: > 10000 ng/mL
IC50, pseudovirus [6]: > 10000 ng/mL
IC50, pseudovirus [18]: > 10000 ng/mL
IC50, pseudovirus [13]: 1 ng/mL

Ly-CoV555 (antibody)
IC50, pseudoviral neutralization [3]: 2 ng/mL
IC50 (pseudovirus neutralization) [13]: 22 ng/mL

Known Antibody E (AZD7442)
IC50, pseudovirus [16]: 232 ng/mL
IC50, pseudovirus [17]: 806 ng/mL
IC50, pseudovirus [6]: 8 ng/mL
IC50, pseudovirus [18]: 65 ng/mL
IC50, pseudovirus [13]: 1 ng/mL

REGN10933 (antibody)
IC50 (ug/ml), authentic virus [2]: 0.004 µg/mL
IC50, pseudoviral neutralization [3]: 1 ng/mL
IC50, pseudovirus [4]: 1 ng/mL
IC50 (pseudovirus neutralization) [13]: 1 ng/mL

Known Antibody J (Ly-CoV16)
IC50, pseudovirus [16]: > 10000 ng/mL
IC50, pseudovirus [17]: > 10000 ng/mL
IC50, pseudovirus [6]: > 10000 ng/mL
IC50, pseudovirus [18]: > 10000 ng/mL
IC50, pseudovirus [13]: 14 ng/mL

ADG10 (antibody)
IC50 (ug/ml), authentic virus [19]: 0.01 µg/mL
IC50 (ug/ml), authentic virus [1]: 0.003 µg/mL
IC50 (ug/ml), authentic virus [2]: 0.006 µg/mL
IC50, pseudoviral neutralization [3]: 7 ng/mL
IC50, pseudovirus [4]: 7 ng/mL

S309 (antibody)
IC50 (ug/ml), authentic virus [20]: 0.256 µg/mL
IC50 (ug/ml), authentic virus [21]: 1.12 µg/mL
IC50, pseudoviral neutralization [22]: 589 ng/mL
IC50 (ug/ml), authentic virus [2]: 0.04 µg/mL
IC50, pseudovirus [4]: 130 ng/mL
IC50, pseudovirus [23]: 79 ng/mL

Ly-CoV1404
IC50, pseudovirus [24]: 2 ng/mL

Omi-18 (antibody)
IC50 against PV [5]: 2 ng/mL
IC50 [6]: 5 ng/mL
IC50 (pseudovirus neutralization) [6]: 5 ng/mL
IC50 against PV [6]: 5 ng/mL
IC50 [7]: 3 ng/mL
IC50 [8]: 3 ng/mL
IC50 (pseudovirus neutralization) [9]: 11 ng/mL
IC50 (pseudovirus neutralization) [10]: 4800 ng/mL
IC50 against PV [15]: 6 ng/mL
IC50 (pseudovirus neutralization) [11]: 6 ng/mL
IC50 (pseudovirus neutralization) [12]: 5 ng/mL
IC50 against PV [12]: 5 ng/mL
IC50 against PV [4]: 8 ng/mL
IC50 (pseudovirus neutralization) [13]: 8 ng/mL

Known Antibody K (S309)
IC50, pseudovirus [16]: 94 ng/mL
IC50, pseudovirus [17]: 138 ng/mL
IC50, pseudovirus [18]: 228 ng/mL
IC50, pseudovirus [13]: 587 ng/mL

Known Antibody F (ADG10)
IC50, pseudovirus [16]: > 10000 ng/mL
IC50, pseudovirus [17]: > 10000 ng/mL
IC50, pseudovirus [6]: > 10000 ng/mL
IC50, pseudovirus [18]: > 10000 ng/mL
IC50, pseudovirus [13]: 7 ng/mL

AZD7442
IC50 (ug/ml), authentic virus [19]: 0.007 µg/mL
IC50 (ug/ml), authentic virus [25]: 0.005 µg/mL
IC50 (ug/ml), authentic virus [1]: 0.006 µg/mL
IC50 (ug/ml), authentic virus [20]: 0.273 µg/mL
IC50 (ug/ml), authentic virus [21]: 3.82 µg/mL
IC50, pseudoviral neutralization [21]: 806 ng/mL
IC50, pseudoviral neutralization [26]: > 10000 ng/mL
IC50 (ug/ml), authentic virus [2]: 0.009 µg/mL
IC50, pseudoviral neutralization [3]: 1 ng/mL
IC50 (pseudovirus neutralization) [6]: 3 ng/mL
IC50, pseudovirus [6]: 8 ng/mL
IC50 (pseudovirus neutralization) [9]: 26 ng/mL
IC50 (pseudovirus neutralization) [14]: 17 ng/mL
IC50 (pseudovirus neutralization) [10]: > 10000 ng/mL
IC50 (pseudovirus neutralization) [11]: > 10000 ng/mL
IC50 (pseudovirus neutralization) [12]: 65 ng/mL
IC50, pseudovirus [4]: 1 ng/mL
IC50 (pseudovirus neutralization) [13]: 1 ng/mL
IC50, pseudovirus [24]: 252 ng/mL
IC50, pseudovirus [27]: 805 ng/mL

Omi-18
IC50 against PV [28]: 2 ng/mL
